Eleven compounds from patent US10202411B2, “3′-substituted methyl or alkynyl nucleosides nucleotides for the treatment of HCV” (priority 2014, dated 2019) can be followed below.

Like-named read-outs stand apart in the source and are kept apart here.

In assay [1] the target is wild-type HCV genotype 1b NS5B protein (Hepatitis C virus genotype 1b (isolate Con1) (HCV), UniProt Q9WMX2). As to the kind of experiment: HCV polymerase enzyme assay, wild-type. The assay is classed as biochemical. The source says: (§1) Test compounds in the form of nucleoside triphosphates were examined for inhibitory activity against purified HCV polymerase in a standard assay. Bacterial expression constructs encoding the approximately 65 kDa HCV genotype 1b NS5B protein were used to generate recombinant HCV polymerases (with a deletion of the 21 carboxy terminal amino acids). Both the wild-type genotype 1b protein and protein containing the S282T mutation were expressed and purified for use in the enzymatic activity assay.
(§2) The enzymatic activity assay measured the inhibitory effect of increasing concentrations of test compound on the incorporation of α-[^33P]-labeled nucleotide into trichloroacetic acid-precipitable material. Recombinant polymerase and synthetic RNA template were combined in reaction buffer containing ribonucleoside triphosphates, α-[^33P]-labeled nucleotide and eight concentrations of test compound in three-fold dilutions. Reactions were incubated for two hours at 30° C.
(§3) Reactions were terminated by the addition of ice-cold trichloroacetic acid and sodium pyrophosphate to promote precipitation of newly-synthesized ribonucleic acid. Precipitable material from the reactions was collected by filtration onto 96-well filter plates, washed extensively with water, and quantified by liquid scintillation.
(§4) The inhibitory activity of test compounds was determined by fitting results to dose-response curves using XLfit software.

Assay [2] concerns the target HCV genotype 1b NS5B protein containing the S282T mutation (Hepatitis C virus genotype 1b (isolate Con1) (HCV), UniProt Q9WMX2, S2701T). As to the kind of experiment: HCV polymerase enzyme assay, S282T mutant. The assay is classed as biochemical. Particulars: read-out: S282T IC50, nucleoside triphosphate form, recombinant HCV genotype 1b NS5B, tested form: triethylammonium (3 Et3NH+).
From the text: as §1, §2, §3, §4

[3] abbreviates: read-out: Wild-Type IC50, nucleoside triphosphate form, recombinant HCV genotype 1b NS5B, tested form: triethylammonium (3 Et3NH+).

One may read the IC50 as the concentration needed to halve the response being measured. As for `Nc1nc(N)c2ncn([C@@H]3O[C@H](COP(=O)(O)OP(=O)(O)OP(=O)(O)O)[C@@H](CO)[C@H]3O)c2n1`, the half-inhibitory concentration (IC50) in assay [1] (setting [3]) was 0.25 to 1 µM; in assay [2], less than 0.25 µM.

`Nc1nc2c(nnn2[C@@H]2O[C@H](COP(=O)(O)OP(=O)(O)OP(=O)(O)O)[C@@H](CO)[C@H]2O)c(=O)[nH]1`: in assay [1] (setting [3]), the IC50 is more than 10 µM.

As for `Cc1cn([C@@H]2O[C@H](COP(=O)(O)OP(=O)(O)OP(=O)(O)O)[C@@H](CO)[C@H]2O)c(=O)[nH]c1=O`, in assay [1] (setting [3]), the IC50 is 0.25 to 1 µM.

As for `O=c1ccn([C@@H]2O[C@H](COP(=O)(O)O)[C@@H](CO)[C@H]2O)c(=O)[nH]1`, the IC50 in assay [1] (read-out: Wild-Type IC50, nucleoside triphosphate form, recombinant HCV genotype 1b NS5B, tested form: triethylammonium (Et3NH+)) was more than 10 µM.

For the compound `O=c1ccn([C@H]2C[C@H](CO)[C@@H](COP(=O)(O)OP(=O)(O)OP(=O)(O)O)O2)c(=O)[nH]1`, in assay [1] (setting [3]), the IC50 is more than 10 µM.

Turning to `O=c1ccn([C@@H]2O[C@H](COP(=O)(O)OP(=O)(O)OP(=O)(O)O)[C@@H](CF)[C@H]2O)c(=O)[nH]1`, the concentration for half-maximal inhibition (IC50) in assay [1] (setting [3]) and in assay [2] was less than 0.25 µM throughout.

With `O=c1ccn([C@@H]2O[C@H](COP(=O)(O)OP(=O)(O)OP(=O)(O)O)[C@@H](CO)[C@H]2O)c(=O)[nH]1`, the IC50 in assay [1] (setting [3]) and in assay [2] was less than 0.25 µM in each case.

Regarding `O=c1ccn([C@@H]2O[C@H](COP(=O)(O)OP(=O)(O)OP(=O)(O)O)[C@@H](C(F)F)[C@H]2O)c(=O)[nH]1`, in assay [1] (setting [3]), the half-inhibitory concentration (IC50) was in the range of 1 to 10 µM.

Regarding `O=c1ccn([C@@H]2O[C@H](COP(=O)(O)OP(=O)(O)O)[C@@H](CO)[C@H]2O)c(=O)[nH]1`, the concentration for half-maximal inhibition (IC50) in assay [1] (read-out: Wild-Type IC50, nucleoside triphosphate form, recombinant HCV genotype 1b NS5B, tested form: triethylammonium (2 Et3NH+)) was in the range of 1 to 10 µM.

As to `Nc1nc2c(ncn2[C@H]2C[C@H](CO)[C@@H](COP(=O)(O)OP(=O)(O)OP(=O)(O)O)O2)c(=O)[nH]1`, in assay [1] (setting [3]), the IC50 is more than 10 µM.

With `O=c1ccn([C@@H]2O[C@H](COP(=O)(O)OP(=O)(O)OP(=O)(O)O)[C@@H](CO)[C@H]2F)c(=O)[nH]1`, the concentration for half-maximal inhibition (IC50) in assay [1] (setting [3]) is 1 to 10 µM.
